Anti-infective test results gathered from many reports (values: NIAID ChemDB through PubChem).

Shared fields: growth or infection tests

Fold resistance has wild type as its base. Rows are shuffled and stem from different studies. MIC50, MIC90 and the like: level of inhibition, or share of isolates inhibited. Inhibition is in % at the dose shown (toxicity tests: loss of growth or viability). ECn: concentration that inhibits the pathogen or its effect by n%. Blank or dashed fields: not listed here.

compound,tested at,organism,cell line,changes,measure,strain,read by,value
Nc1nc2c(ncn2COC(CO)CO)c(=O)[nH]1,-,Mouse cytomegalovirus,C1271,-,EC50,Ganciclovir-resistant,plaque count,57 µM
OC[C@H]1O[C@@H](n2cnc3c(NC4CC4)ncnc32)[C@H](O)[C@@H]1O,-,Bovine herpesvirus 1,MDBK,-,EC50,IRB-LA,cytopathic effect,>50 µM
Nc1ncnc2c1ncn2C[C@H](O)CO,-,Pichinde virus,VERO 76,-,EC50,-,antigen,471 µg/mL
Nc1ncnc2c1ncn2[C@H]1C[C@H](F)[C@@H](CO)O1,-,Pichinde virus,VERO,-,EC50,-,plaque count,>32 µM
C=CC(C)(C)C1=Cc2cc3c(cc2OC1=C)OC(C(C)(C)OC(C)=O)C3,-,Epstein-Barr virus,Akata-Bx1,-,EC50,-,PCR,2.94 µM
Nc1ncnc2c1ncn2C[C@@H](CO)OCP(=O)(O)O,-,Herpes simplex virus 1,HEL,-,EC50,KOS S2242-resistant,cytopathic effect,0.11 µg/mL
NC(=O)c1ncn([C@@H]2O[C@H](CO)[C@@H](O)[C@H]2O)n1,-,Influenza B virus,-,-,MIC,B/University of Maryland/1/71,-,0.05 µg/mL
Nc1ccn([C@@H]2CS[C@H](CO)O2)c(=O)n1,-,Duck hepatitis B virus,LMH,-,EC50,WILD TYPE,-,10 µM
OC[C@H]1O[C@@H](n2cnc3c(NC4CCCCCC4)nc(Cl)nc32)[C@H](O)[C@@H]1O,-,Bovine herpesvirus 1,MDBK,-,EC50,IRB-LA,cytopathic effect,>50 µM
Nc1ccn(C[C@@H](CO)OCP(=O)(O)O)c(=O)n1,-,Mouse cytomegalovirus,C1271,-,EC50,Foscarnet-resistant,plaque count,0.3 µM
Nc1nc(=O)n([C@@H]2CS[C@H](CO)O2)cc1F,-,Duck hepatitis B virus,HepG2,-,EC50,WILD TYPE,-,0.058 µM
O=C1N(Cc2ccc(CO)cc2)[C@H](Cc2ccccc2)[C@H](O)[C@@H](O)[C@@H](Cc2ccccc2)N1Cc1ccc(CO)cc1,0.32 µM,HIV-1,MT-2,-,inhibition,A018C POST AZT,virus yield,90%
COc1cc(Cc2cnc(N)nc2N)cc(OC)c1Br,-,Mycobacterium ulcerans,-,-,MBC,Isolate 94-539,-,8 µg/mL
N=C(N)c1ncn([C@@H]2O[C@H](CO)[C@@H](O)[C@H]2O)n1,-,Influenza A virus,MDCK,-,EC50,H1N1 A/PR/8/34,neutral red,18 µg/mL
Clc1ccc(COC(Cn2ccnc2)c2ccc(Cl)cc2Cl)c(Cl)c1,-,Candida albicans,-,-,MFC100,LM 42V,broth dilution,32 µg/mL
CCCCCCCCCCCCCCCCCCCCCCOCC(C)(COCCCCCCCCCCCCCCCCCCCCCC)CO[C@]1(C(=O)O)C[C@H](OS(=O)(=O)O)[C@@H](NC(C)=O)[C@H]([C@H](OS(=O)(=O)O)[C@@H](COS(=O)(=O)O)OS(=O)(=O)O)O1,-,Respiratory syncytial virus,HEP-2,-,EC50,LONG,plaque count,0.32 µM
O=C(O)CP(=O)(O)O,-,Herpes simplex virus 1,HEL,-,EC50,KOS ACV-resistant,cytopathic effect,10 µg/mL
OC[C@H]1O[C@@H](n2cnc3c(NC4CC4)cc(Cl)nc32)C[C@@H]1O,-,Bovine herpesvirus 1,MDBK,-,EC50,IRB-LA,cytopathic effect,>50 µM
O=C1C=CN([C@@H]2O[C@H](CO)[C@@H](O)[C@H]2O)C(=O)C1,-,Pichinde virus,VERO 76,-,EC50,-,antigen,5.2 µg/mL
CC(=O)NC[C@H]1CN(c2ccc(N3CCN(C(=O)CO)CC3)c(F)c2)C(=O)O1,-,Streptococcus pneumoniae,-,-,MIC50,Penicillin-susceptible,-,0.5 µg/mL
Cc1cn([C@@H]2O[C@H](CO)[C@@H](O)[C@@H]2O)c(=O)[nH]c1=O,-,Herpes simplex virus 1,HEL,-,EC50,KOS PMEA-resistant,cytopathic effect,0.37 µg/mL
OC[C@@H]1CC[C@H](n2cnc3c(NC4CCCCCC4)nc(Cl)nc32)O1,-,Maedi-visna virus,Sheep chondrocytes G81092,-,EC50,KV1772,cytopathic effect,0.027 µM
CO[C@@H]1[C@H](O)[C@@H](COP(=O)(O)OP(=O)(O)OP(=O)(O)O)O[C@H]1n1ccc(N)nc1=O,30 µg/mL,Hepatitis C virus,Hep3B-T5B,-,inhibition,-,MTT,53.68%
CC[C@H]1OC(=O)[C@H](C)[C@@H](O[C@H]2C[C@@](C)(OC)[C@@H](O)[C@H](C)O2)[C@H](C)[C@@H](O[C@@H]2O[C@H](C)C[C@H](N(C)C)[C@H]2O)[C@](C)(OC)C[C@@H](C)C(=O)[C@H](C)[C@@H](O)[C@]1(C)O,-,Mycobacterium abscessus,-,-,MIC,X42,broth dilution,4 µg/mL
COc1cc(Cc2cnc(N)nc2N)cc(OC)c1OCCCNc1ccc(S(=O)(=O)c2ccc(N)cc2)cc1,-,Mycobacterium ulcerans,-,-,MBC,Isolate 8756,-,2 µg/mL
Nc1nc(N)c2ncn(CCOCP(=O)(O)O)c2n1,-,Varicella zoster virus,HEL,-,EC50,PFA-resistant/A,plaque count,4.5 µg/mL
COc1cc(C[C@H](C)[C@H](C)Cc2ccc(O)c(O)c2)ccc1O,-,Candida parapsilosis,-,-,MIC100,CCC 124-2000,broth dilution,125 µg/mL
O=C(O)CP(=O)(O)O,-,Varicella zoster virus,HEL,-,EC50,OKA,plaque count,7.1 µg/mL
O=c1[nH]c(=O)n([C@H]2C[C@H](O)[C@@H](CO)O2)cc1/C=C/Br,-,Herpes simplex virus 1,HEL,-,EC50,KOS HPMPA-resistant,cytopathic effect,0.005 µg/mL
Nc1nc2c(ncn2[C@H]2CO[C@@H](CO)O2)c(=O)[nH]1,-,Duck hepatitis B virus,Huh7,-,EC50,WILD TYPE,-,>100 µM
OC[C@H]1O[C@@H](n2cnc3c(NC4CCCC4)nc(Cl)cc32)[C@H](O)[C@@H]1O,-,Maedi-visna virus,Sheep chondrocytes G81092,-,EC50,KV1772,cytopathic effect,1.5 µM
Nc1ccn(C[C@@H](CO)OCP(=O)(O)O)c(=O)n1,-,Varicella zoster virus,HEL,-,EC50,PMEDAP-resistant,plaque count,0.082 µg/mL
Nc1cc(Cl)nc2c1ncn2[C@H]1C[C@H](O)[C@@H](CO)O1,-,Maedi-visna virus,Sheep chondrocytes G81092,-,EC50,KV1772,cytopathic effect,15 µM
NC(=O)c1nc(F)c[nH]c1=O,-,Influenza A virus,MDCK,-,EC50,Influenza A/Kitakyushu/159/93 (H3N2),plaque count,0.48 µg/mL
O=C(O)P(=O)(O)O,-,Mouse cytomegalovirus,C1271,-,EC50,WILD TYPE,plaque count,90 µM
C#C[C@]1(CO)O[C@@H](n2cnc3c(N)nc(F)nc32)CC1O,-,HIV-2,MAGIC-5A,K65R Q151M M184V,EC50,ROD9,β-galactosidase / absorbance,0.0062 µM
CC[C@H]1C[C@]1(NC(=O)[C@@H]1C[C@@H]2CN1C(=O)[C@H](C(C)(C)C)NC(=O)OCC(C)(C)CCCCc1cccc3c1CN(C3)C(=O)O2)C(=O)NS(=O)(=O)C1CC1,-,Hepatitis C virus,Huh7.5,-,EC50,452,antigen,2.178 µM
CC(C)(CO)C(=O)SCCOP(=O)(NCc1ccccc1)OC[C@H]1O[C@@H](n2cnc3c(=O)[nH]c(N)nc32)[C@](C)(O)[C@@H]1O,-,Hepatitis C virus,Replicon cells,L31M,fold resistance,GT1b,replicon,0.91
Oc1cc(O)c2c(c1)OC(c1ccc(O)c(O)c1)[C@@H](O)C2,-,Candida tropicalis,-,-,MIC50,Clinical isolate 6,broth dilution,>128 µg/mL
Nc1nc2c(ncn2CCC(CO)CO)c(=O)[nH]1,-,Herpes simplex virus 1,HEL,-,EC50,KOS PFA-resistant,cytopathic effect,0.11 µg/mL
OC[C@@H]1C[C@@H](O)[C@H](n2cnc3c(NC4CCCCCC4)cc(Cl)nc32)O1,-,Bovine herpesvirus 1,MDBK,-,EC50,IRB-LA,cytopathic effect,>50 µM
CCC[C@H](NC(=O)[C@@H]1[C@H]2CCC[C@H]2CN1C(=O)[C@@H](NC(=O)[C@@H](NC(=O)c1cnccn1)C1CCCCC1)C(C)(C)C)C(=O)C(=O)NC1CC1,-,Hepatitis C virus,Huh7.5,-,EC50,JCH2,antigen,0.635 µM
Nc1nc2c(ncn2COC(CO)CO)c(=O)[nH]1,-,Varicella zoster virus,HEL,-,EC50,PCV-resistant/B,plaque count,0.16 µg/mL
C[C@@]1(O)[C@H](O)[C@@H](CO)O[C@H]1c1coc2c(N)ncnc12,50 µg/mL,Hepatitis C virus,HeLa-5B,-,inhibition,-,MTT,1.07%
Nc1nc2c(ncn2COCCO)c(=O)[nH]1,-,Mouse cytomegalovirus,C1271,-,EC50,WILD TYPE,plaque count,4 µM
O=c1cnn([C@@H]2O[C@H](CO)[C@@H](O)[C@H]2O)c(=O)[nH]1,-,Dengue virus,VERO,-,EC90,Type 1 (Hawaii),virus yield,3.3 µg/mL

For reference, 6 entries again:

{"compound": "Nc1ncnc2c1ncn2[C@H]1C[C@H](F)[C@@H](CO)O1", "organism": "Pichinde virus", "cell line": "VERO", "measure": "EC50", "read by": "plaque count", "value": ">32 µM"}
{"compound": "Nc1nc2c(ncn2COC(CO)CO)c(=O)[nH]1", "organism": "Varicella zoster virus", "cell line": "HEL", "measure": "EC50", "strain": "PCV-resistant/B", "read by": "plaque count", "value": "0.16 µg/mL"}
{"compound": "Nc1nc2c(ncn2CCC(CO)CO)c(=O)[nH]1", "organism": "Herpes simplex virus 1", "cell line": "HEL", "measure": "EC50", "strain": "KOS PFA-resistant", "read by": "cytopathic effect", "value": "0.11 µg/mL"}
{"compound": "O=C1N(Cc2ccc(CO)cc2)[C@H](Cc2ccccc2)[C@H](O)[C@@H](O)[C@@H](Cc2ccccc2)N1Cc1ccc(CO)cc1", "tested at": "0.32 µM", "organism": "HIV-1", "cell line": "MT-2", "measure": "inhibition", "strain": "A018C POST AZT", "read by": "virus yield", "value": "90%"}
{"compound": "CO[C@@H]1[C@H](O)[C@@H](COP(=O)(O)OP(=O)(O)OP(=O)(O)O)O[C@H]1n1ccc(N)nc1=O", "tested at": "30 µg/mL", "organism": "Hepatitis C virus", "cell line": "Hep3B-T5B", "measure": "inhibition", "read by": "MTT", "value": "53.68%"}
{"compound": "CCCCCCCCCCCCCCCCCCCCCCOCC(C)(COCCCCCCCCCCCCCCCCCCCCCC)CO[C@]1(C(=O)O)C[C@H](OS(=O)(=O)O)[C@@H](NC(C)=O)[C@H]([C@H](OS(=O)(=O)O)[C@@H](COS(=O)(=O)O)OS(=O)(=O)O)O1", "organism": "Respiratory syncytial virus", "cell line": "HEP-2", "measure": "EC50", "strain": "LONG", "read by": "plaque count", "value": "0.32 µM"}